Pooled drug test results. Numbers come from NIAID ChemDB, via PubChem.

Common to all: tests on isolated targets; agent: HIV-1; target: Reverse transcriptase

Blank or dashed fields: not listed here. a–b is a range or a potency band. Neighbouring rows are from separate reports. ICn is the concentration giving n% inhibition.

smiles,mutations,measure,strain or isolate,method,value
Nc1nc(Cl)c2ncn([C@H]3C=C[C@@H](COP([O-])(=S)OP(=O)(O)C(F)(F)P(=O)(O)O)C3)c2n1,-,IC50,-,fluorescence,>10 µM
CCC(NC(=S)Nc1ccc(C)cn1)c1ccccc1,-,IC50,-,-,0.8 µM
CC(C)(C)OC(=O)Cn1cnc2c(Oc3ccccc3[N+](=O)[O-])nc(NC(=O)OCc3ccccc3)nc21,Y188L,Ki,NNRTI-resistant,nucleotide incorporation / radiometric,211 µM
COc1ccc(S(=O)(=O)N2CCN(C(=O)c3cc(O)c(O)c(O)c3)CC2)cc1,-,IC50,BH10,ELISA / nucleotide incorporation,>50 µM
O=c1c2cccn2ccn1CCNC(=S)Nc1ccc(Br)cn1,RT-Y188L,Ki,-,nucleotide incorporation,0.61 µM
Cc1csc(NC(=S)N[C@@H](C)c2cccc3ccccc23)n1,-,Ki,-,-,>100 µM
CCC1(c2ccc(COc3ccccc3Cl)cc2)Oc2ccccc2-n2cccc2C1=O,RT-Y181I,IC50,-,nucleotide incorporation / radiometric,>10 µM
Cc1cc(C)c(-n2nnnc2SCC(=O)Nc2cccc3c2C(=O)NC3=O)c(C)c1,-,IC50,-,nucleotide incorporation / radiometric,<2 µM
C[C@@H](CNC(=S)Nc1ccc(Br)cn1)c1ccccc1,-,IC50,-,-,0.42 µM
CCN1c2ncc(CCOc3ccc(CCC(=O)O)c4ccccc34)cc2C(=O)Nc2c(C)ccnc21,RT-V106A,IC50,-,nucleotide incorporation / radiometric,0.1–1 µM
Cc1cn([C@H]2C[C@H](N=[N+]=[N-])[C@@H](COP(=S)([S-])OP(=O)(O)C(F)(F)P(=O)(O)O)O2)c(=O)[nH]c1=O,-,IC50,-,fluorescence,>0.5 µM
Cc1cc(S(N)(=O)=O)ccc1NC(=O)COc1ccc(Cl)cc1C(=O)c1cc(Cl)cc(C#N)c1,RT-Y188C,IC50,-,fluorescence,0.0031 µM
CCC(NC(=S)Nc1ccc(Cl)cn1)c1ccccc1,-,IC50,-,-,3.4 µM
O=C(CSc1nnnn1-c1ccc2c(c1)OCO2)Nc1ccccc1Cl,-,IC50,-,nucleotide incorporation / radiometric,<2 µM
O=C(O)Cn1cnc2c(Oc3ccccc3[N+](=O)[O-])nc(NC(=O)OCc3ccccc3)nc21,-,Ki,WT,nucleotide incorporation / radiometric,3 µM
CC(C)(C)c1ccc(S(=O)(=O)N2CCN(C(=O)c3cc(O)c(O)c(O)c3)CC2)cc1,-,IC50,BH10,ELISA / nucleotide incorporation,>50 µM
C[C@H](NC(=S)Nc1ccc(Cl)cn1)c1cccc2ccccc12,-,Ki,-,-,>100 µM
CCN1c2ncc(CCOc3ccc(CC(=O)O)c4ccccc34)cc2C(=O)N(C)c2ccc(F)nc21,RT-K103N Y181C,IC50,-,nucleotide incorporation / radiometric,0.1–1 µM
CCC1(c2ccc(COc3ccccc3)cc2)Oc2ccccc2-n2cccc2C1=O,-,IC50,WT,nucleotide incorporation / radiometric,0.15 µM
COc1ccc2c(c1)N(C(=O)OC(C)C)[C@@H](CSC)C(=S)N2,RT-Y188L,IC50,-,scintillation proximity / radiometric,2 µM
CCC1(c2cccc(N)c2)Oc2ccccc2-n2cccc2C1=O,RT-Y188L,IC50,-,nucleotide incorporation / radiometric,>10 µM
Cc1cn([C@H]2CC[C@@H](COP(=O)(O)OP(=O)(O)OP(=O)(O)O)O2)c(=O)[nH]c1=O,-,IC50,-,nucleotide incorporation / radiometric,0.1 µM
O=C(CSc1nnnn1-c1cccc(Cl)c1)Nc1ccccc1Cl,-,IC50,-,nucleotide incorporation / radiometric,<2 µM
COc1ccc(/C=C/NC(=O)Nc2ccc(Cl)cn2)cc1OC,RT-Y181I,Ki,-,nucleotide incorporation,>20 µM
O=C(O)c1c[nH]c2ccc(Cl)cc2c1=O,-,Ki,-,nucleotide incorporation / radiometric,5 µM
O=C1c2ccncc2C(=O)N1CCNC(=S)Nc1ccc(Br)cn1,-,Ki,-,nucleotide incorporation,0.35 µM
Cc1cn([C@H]2CC[C@@H](COP(=O)(O)OP(=O)(O)OP(=O)(O)O)O2)c(=O)[nH]c1=O,-,Ki,-,fluorescence,0.0052 µM
CCN1c2ncc(CCOc3cccc4c3CCCN4CC(=O)O)cc2C(=O)N(C)c2cccnc21,RT-K103N Y181C,IC50,-,nucleotide incorporation / radiometric,>1 µM
Cc1cc(C)c(-n2nnnc2SCC(=O)Nc2ccc(-n3cccn3)cc2)c(C)c1,-,IC50,-,nucleotide incorporation / radiometric,<2 µM
CCC1(c2cccc(Cl)c2)Cc2ccccc2-n2cccc2C1=O,RT-V106A,IC50,-,nucleotide incorporation / radiometric,10 µM
Cc1cn([C@H]2C[C@H](N=[N+]=[N-])[C@@H](CO[P@](=O)([Se-])OP(=O)(O)C(F)(F)P(=O)(O)O)O2)c(=O)[nH]c1=O,-,Ki,-,fluorescence,0.064 µM
CN(C)S(=O)(=O)N1CCC(NC(=O)c2cc(O)c(O)c(O)c2)CC1,-,IC50,BH10,ELISA / nucleotide incorporation,>333.9 µM
CCN1c2ncc(CCOc3ccc(C(=O)O)c4ccccc34)cc2C(=O)Nc2c(C)cc(Cl)nc21,RT-K103N Y181C,IC50,-,nucleotide incorporation / radiometric,0.1–1 µM
COc1cccc(C(=O)N2CCC(NC(=O)c3cc(O)c(O)c(O)c3)CC2)c1,-,IC50,BH10,ELISA / nucleotide incorporation,186.3 µM
CCC1(c2cccc(COc3ccccc3)c2)Oc2ccccc2-n2cccc2C1=O,RT-Y181I,IC50,-,nucleotide incorporation / radiometric,>100 µM
CCN1c2ncc(CCOc3ccc(/C(C)=C/C(=O)O)c4ccccc34)cc2C(=O)N(C)c2cccnc21,RT-Y188L,IC50,-,nucleotide incorporation / radiometric,>1 µM
CCC1(c2ccc(I)cc2)Oc2ccccc2-n2cccc2C1=O,RT-Y181I,IC50,-,nucleotide incorporation / radiometric,>100 µM
CS(=O)(=O)N1CCC(NC(=O)c2cc(O)c(O)c(O)c2)CC1,-,IC50,BH10,ELISA / nucleotide incorporation,>363.2 µM
CCC1(c2ccc(CNc3ccccc3)cc2)Oc2ccccc2-n2cccc2C1=O,RT-K103N,IC50,-,nucleotide incorporation / radiometric,2.5 µM
Cc1cc(C)c(-n2nnnc2SCC(=O)Nc2ccc(F)cc2C)c(C)c1,-,IC50,-,nucleotide incorporation / radiometric,<2 µM
Cc1csc(NC(=S)N[C@H](C)c2ccccc2)n1,-,IC50,-,-,0.8 µM
O=C(CSc1nnnn1-c1cccc2ccccc12)Nc1ccc(Cl)cc1Cl,-,IC50,-,nucleotide incorporation / radiometric,<2 µM
Cc1cccc2sc(NC(=S)N[C@H](C)c3cccc4ccccc34)nc12,-,IC50,-,-,10.2 µM
Cc1cc(C)c(-n2nnnc2SCC(=O)Nc2ccc(S(N)(=O)=O)cc2)c(C)c1,-,IC50,-,nucleotide incorporation / radiometric,<2 µM
O=c1c2cccn2c2cccc(F)c2n1CCNC(=S)Nc1ccc(Br)cn1,RT-L100I,Ki,-,nucleotide incorporation,0.17 µM
Cc1cc(C)c(-n2nnnc2SCC(=O)Nc2ccccc2Cl)c(C)c1,-,IC50,-,nucleotide incorporation / radiometric,<2 µM
CCN1c2ncc(CCOc3ccc(CCC(=O)NN)c4ccccc34)cc2C(=O)N(C)c2cccnc21,-,IC50,WT,nucleotide incorporation / radiometric,<0.1 µM